Anti-infective test results gathered from many reports (values: NIAID ChemDB through PubChem).

All rows: whole-cell or culture tests; agent: HIV-1; measure: inhibition

Rows are shuffled and stem from different studies. Blank or dashed fields: not listed here. Inhibition is in % at the dose shown (toxicity tests: loss of growth or viability).

structure	strain or isolate	cells	dose	read by	setting	result
C/C=C(\C)C(=O)O[C@@H]1[C@@H](OC(C)=O)[C@H]2[C@@H](CC[C@H]3C[C@@H](O[C@H]4C[C@@H](OC)[C@H](O[C@@H]5OC(C)[C@@H](O[C@@H]6OC(CO)[C@@H](O)[C@H](O)C6O)[C@H](OC)C5O)C(C)O4)CC[C@@]32C)[C@@]2(O)CC[C@H](C(C)=O)[C@@]12C	-	SupT1	30 µM	luciferase	pseudotyped	14.12%
CC(C)[C@H](NC(=O)c1ccc2ccccc2n1)C(=O)N[C@@H](Cc1ccccc1)[C@H](O)CN1CC[C@@H](OCc2ccncc2)C[C@H]1C(=O)NC(C)(C)C	HXB2	H9	0.014 µM	p24	-	90%
Cc1cn([C@H]2C[C@H](N=[N+]=[N-])[C@@H](CO)O2)c(=O)[nH]c1=O	LAV-1	HT4 + HT4-6C	0.1 µM	syncytia	-	86%
CCC[C@@]1(CCc2ccccc2)CC(O)=C([C@H](CC)c2cccc(NS(=O)(=O)c3ccc(C(F)(F)F)cn3)c2)C(=O)O1	Isolate N. Amer 6	PBMC	0.12 µM	p24	-	90%
C[C@@H](C=O)NC(=O)[C@@H]1CCCN1C(=O)CN	IIIB	H9	25 µg/mL	syncytia	-	15%
Cc1cn([C@H]2C[C@H](N=[N+]=[N-])[C@@H](COP(=O)(O)OC[C@H]3OC(O)[C@H](O)[C@@H](O)[C@@H]3O)O2)c(=O)[nH]c1=O	LAV-Bru	CEM	5 µM	RT activity	26 d	60%
Oc1ccc(/C=C/c2cc(O)cc(O)c2)cc1	EJC-R2	PBMC	10 µM	p24	clinical isolate	10%
Nc1ccn([C@@H]2CS[C@H](CO)O2)c(=O)n1	SF162 R5	PBL (activated) + PBL	5 µM	RT activity	-	100%
O=S(=O)(O)c1cc(N=C=S)ccc1CCc1ccc(N=C=S)cc1S(=O)(=O)O	RF	C8166	100 µg/mL	p24	-	97.5%
Nc1ccn([C@H]2CC[C@@H](CO)O2)c(=O)n1	LAV-1	U-937	0.001 µM	virus yield	-	>100%
Cc1cn([C@H]2C[C@H](N=[N+]=[N-])[C@@H](CO)O2)c(=O)[nH]c1=O	IIIB	PBL (resting) + PBL	0.03 µM	RT activity	-	50%
NC(N)=NCCC[C@H](NC(=O)[C@@H](N)Cc1ccc(O)cc1)C(=O)NCC(=O)N1CCC[C@H]1C(=O)NCC=O	IIIB	H9	250 µg/mL	syncytia	-	100%
CO[C@@H]1C(O)[C@H](O[C@@H]2C(C)O[C@@H](O[C@H]3CC[C@@]4(C)C(=CC[C@]5(O)[C@@H]4[C@H](OC(=O)c4ccccc4)[C@@H](OC(=O)c4ccccc4)[C@]4(C)[C@@H](C(C)=O)CC[C@@]45O)C3)C[C@H]2OC)OC(C)[C@H]1O[C@@H]1OC(CO)[C@@H](O[C@@H]2OC(CO)[C@@H](O)[C@H](O)C2O)[C@H](O)C1O	-	SupT1	30 µM	luciferase	pseudotyped	17.02%
Nc1ccn([C@H]2CC[C@@H](CO)O2)c(=O)n1	LAV-1	HT4 + HT4-6C	0.001 µM	syncytia	-	28%
C/C=C(\C)C(=O)O[C@@H]1[C@@H](OC(=O)c2ccccc2)[C@]2(C)[C@@H](C(C)=O)CC[C@@]23O[C@]32CC[C@H]3C[C@@H](O[C@H]4C[C@@H](OC)C(O[C@@H]5OC(C)C(O[C@@H]6OC(CO)C(O)[C@H](O)C6O)[C@H](OC)C5O)C(C)O4)CC[C@]3(C)[C@@H]12	-	SupT1	30 µM	luciferase	pseudotyped	8.26%
CC(=O)[C@H]1CC[C@H]2[C@@H]3CCC4=CC(=O)CC[C@]4(C)[C@H]3CC[C@]12C	-	U1	1 µM	p24	-	54.9%
Cc1cn([C@H]2C=C[C@@H](CO)O2)c(=O)[nH]c1=O	BZ X4	PBL (activated) + PBL	4 µM	RT activity	-	99%
C/C=C(\C)C(=O)O[C@@H]1[C@@H](OC(=O)c2ccccc2)[C@]2(C)[C@@H](C(C)=O)CC[C@]2(O)[C@]2(O)CC[C@H]3C[C@@H](O[C@H]4C[C@@H](OC)[C@H](O[C@@H]5OC(C)[C@@H](O[C@@H]6OC(CO)[C@@H](O)[C@H](O)C6O)[C@H](OC)C5O)C(C)O4)CC[C@]3(C)[C@@H]12	-	SupT1	30 µM	luciferase	pseudotyped	29.77%
C/C(=C(/CCO)SSCC1CCCO1)N(C=O)Cc1cnc(C)nc1N	MN	H9/HIV-1(MN) + H9	50 µM	p24	-	96%
Cc1cn([C@H]2C[C@H](N=[N+]=[N-])[C@@H](COP(=O)(O)OC[C@H]3OC(O)[C@@H](O)[C@@H](O)[C@@H]3O)O2)c(=O)[nH]c1=O	LAV-Bru	U-937	5 µM	RT activity	11 d	0%
CC(C)Nc1cccnc1N1CCN(C(=O)c2cc3cc(N=CN(C)C)ccc3[nH]2)CC1	Seropositive clinical isolate B	PBMC	1 µM	MTT	-	100%
NCC(=O)N1CCC[C@H]1C=O	IIIB	H9	250 µg/mL	syncytia	-	75%
CCCCCCCCCCCCCCCCOP(=O)(OC[C@H]1OC(O)[C@H](O)[C@@H](O)[C@@H]1O)OC[C@H]1O[C@@H](n2cc(C)c(=O)[nH]c2=O)C[C@@H]1N=[N+]=[N-]	LAV-Bru	CEM	0.2 µM	RT activity	26 d	0%
COc1cc(O)c2c(=O)oc3cc(O)cc(C)c3c2c1	NL4-3	MT-4	60 µM	luciferase	pseudotyped	80%
COC(=O)[C@@H]1C2CCC(C[C@@H]1OC(=O)c1ccccc1)N2C	IIIB	ACH-2 + ACH2	50 µg/mL	p24	-	<0%
O=C1N(Cc2ccc(CO)cc2)[C@H](Cc2ccccc2)[C@H](O)[C@@H](O)[C@@H](Cc2ccccc2)N1Cc1ccc(CO)cc1	Clinical isolate K	PBMC	0.16 µM	p24	-	90%
NCC(=O)N1CCC[C@H]1C(=O)NCC(=O)NCC=O	IIIB	H9	250 µg/mL	p24	-	85.4%
c1cc(CN2CCCNCCNCCCNCC2)ccc1CN1CCCNCCNCCCNCC1	SW12 CLADE C X4	PBMC	0.5 µM	p24	-	86%
NCC(=O)N1CCC[C@H]1C(=O)NCC(=O)N[C@H](C=O)CCCN=C(N)N	ELI	HUT	250 µg/mL	p24	-	73.6%
O=C(O)P(=O)(O)O	IIIB	PBL	64 µM	RT activity	28 d	94%

4 of the rows above, restated:

structure	strain or isolate	cells	dose	read by	setting	result
O=C1N(Cc2ccc(CO)cc2)[C@H](Cc2ccccc2)[C@H](O)[C@@H](O)[C@@H](Cc2ccccc2)N1Cc1ccc(CO)cc1	Clinical isolate K	PBMC	0.16 µM	p24	-	90%
c1cc(CN2CCCNCCNCCCNCC2)ccc1CN1CCCNCCNCCCNCC1	SW12 CLADE C X4	PBMC	0.5 µM	p24	-	86%
COC(=O)[C@@H]1C2CCC(C[C@@H]1OC(=O)c1ccccc1)N2C	IIIB	ACH-2 + ACH2	50 µg/mL	p24	-	<0%
Cc1cn([C@H]2C[C@H](N=[N+]=[N-])[C@@H](COP(=O)(O)OC[C@H]3OC(O)[C@@H](O)[C@@H](O)[C@@H]3O)O2)c(=O)[nH]c1=O	LAV-Bru	U-937	5 µM	RT activity	11 d	0%